These results are taken from publication PMC7954794, “Protein context shapes the specificity of SH3 domain-mediated interactions in vivo” (Nature Communications, 2021).

B1: YDL146W (protein, UniProt Q12342 1-491, looked up)
Protein LDB17: MILDPLSPNIENHTQDEIIEFWEKTESIANIPKENLDESHVNSSLVAYLKFATDSYKVFINTDRDLYRMSLILLESSLFEFKKEFCLSKLQSLLNIDLLEMNMKFIIVYILLCEAKKNVYSLEIMLKFQGFTVFYNTLYTQFAYLSKYGKERTVASKHQYNSNNSSTGTSLDSLDRSLTDIDLGIIDEMKQISTVLMDLLFQIMKYCKCVIANLQIVDDFFVYYMMESMRSDTMDDMFNNAEFKLLLALNEQYMMFAKEYDIENKVYKYLINGSVSRCFTELLLLKFNRASDPPLQIMMCKIIYLILTPRGDYSPMNFFYTNDLRVLIDVLIRELQNISEDEEVLRNTLLRVLIPLLKNTQLSKTHYRKDDLNKLLNYLSTLDNICVDSPALHEHQVTVALSRKCLQQIPWLETPSTPSDGGSSVSSNNTSRNSSIVALGTPDNQNILARKGHLYSNRELDVSAESLTKRKAKAPPPPPPPPPSRKCGTPK
B2: YGR037C (protein, UniProt P31787 1-87, looked up)
Acyl-CoA-binding protein: MVSQLFEEKAKAVNELPTKPSTDELLELYALYKQATVGDNDKEKPGIFNMKDRYKWEAWENLKGKSQEDAEKEYIALVDQLIAKYSS
B3: YFL010C (protein, UniProt P43582 1-211, looked up)
WW domain-containing protein …: MAQSKSNPPQVPSGWKAVFDDEYQTWYYVDLSTNSSQWEPPRGTTWPRPKGPPPGVNNEKSSRQQADQAPPPYSSQSTPQVQAGAQAQQPRYYQPQQPQYPQYPQQQRYYPQQAPMPAAAPQQAYYGTAPSTSKGSGHGGAMMGGLLGVGAGLLGGAMLEHAFDDHNYDGPDTVVVENNYYGDDAGGSDGGFDDAGGFDGGFDDGFDGSDF
B4: YHR114W (protein, UniProt P38822 1-633, looked up)
Protein BZZ1: MSADLSIGNEIKDSFKETHKWVQNNLKWLKDIEQFYRERAKLEKDYSERLSRLSAEYFNKKSSTSVPISVGDTPTTTPGSIEAAGVVAWNEILSQTDMISKDHDQLSTDFENHVANQLSGLFTKLDMTLSKINGFNNDMVNKKDNIYHELEKAKKDYDEACSTMEMARNRYTKASNDRNKKKLDEKEMEMNKCKNEYLIKINQANRTKDKYYFQDVPEVLDLLQDVNEAKTLFLNDLWLKAASVENDLGANVSKRLQAANSVVKQNKPSLNTAIFIKHNLKNWKEPQDFVYKPSPVWHDDEKFAVPSSLEVEDLRIKLAKAENDYNSLQDKTQNELSKLSTLNKIKHEMKTNEDNINATKFYDTLKEYLNVVSPFTSHETLKLQAEVQIESIQNNVPEEYDLSTDNIDLSKTKKKSGIFSKFKHNILNVDSKPSSGGSTGNGNGGPLHITSLFNTSRRTRLGSAPNNAGEDSDNNSIRTTSTNNTKKTTQNSSDDGKNKVLYAYVQKDDDEITITPGDKISLVARDTGSGWTKINNDTTGETGLVPTTYIRISSAATVKANDRGPAPEVPPPRRSTLPVRTMEAIYAYEAQGDDEISIDPGDIITVIRGDDGSGWTYGECDGLKGLFPTSYCK
B5: YFR040W (protein, UniProt P43612 1-1002, looked up)
SIT4-associating protein …: MSFWPFGQNLNHSNINKILDEYFHVLHELERINPSVGKAIPAIFNNVQERGTSDSLDSIPEEYSHGDEVKTARGDQKSRFEKDDQQERYEKEEEERSMNSSESSTTSFSSGSTSKTDLDEEDISNATAPMMVTTKNLDNSFIERMLVETELLNELSRQNKTLLDFICFGFFFDKKTNKKVNNMEYLVDQLMECISKIKTATTVDLNNLIDYQEQQQLDDSSQEDVYVESDTEQEEEKEDDNNSNNKKRRKRGSSSFGNDDINNNDDDDDANEDDESAYLTKATIISEIFSLDIWLISESLVKNQSYLNKIWSIINQPNFNSENSPLVPIFLKINQNLLLTRQDQYLNFIRTERSFVDDMLKHVDISLLMDFFLKIISTDKIESPTGIIELVYDQNLISKCLSFLNNKESPADIQACVGDFLKALIAISANAPLDDISIGPNSLTRQLASPESIAKLVDIMINQRGAALNTTVSIVIELIRKNNSDYDQVNLLTTTIKTHPPSNRDPIYLGYLLRKFSNHLSDFFQIILDIENDANIPLHENQLHEKFKPLGFERFKVVELIAELLHCSNMGLMNSKRAERIARRRDKVRSQLSHHLQDALNDLSIEEKEQLKTKHSPTRDTDHDLKNNNGKIDNDNNDNDDESDYGDEIDESFEIPYINMKQNIKLRTDPTVGDLFKIKLYDTRIVSKIMELFLTHPWNNFWHNVIFDIIQQIFNGRMDFSYNSFLVLSLFNLKSSYQFMTDIVISDEKGTDVSRFSPVIRDPNFDFKITTDFILRGYQDSYKFYELRKMNLGYMGHIVLIAEEVVKFSKLYKVELISPDIQVILQTEEWQYYSEEVLNETRMMYSKILGGGSYIDDGNGNIIPQLPDNTTVLTPNGDASNNNEILDSDTGSSNGTSGGGQLINVESLEEQLSLSTESDLHNKLREMLINRAQEDVDNKNTENGVFILGPPEDKNSNSNINNTNHNSNNSNNNDNNDNNDNDNDNTRNYNEDADNDNDYDHE
B6: YGL252C (protein, UniProt P32608 1-588, looked up)
Retrograde regulation protein …: MSTLSDSDTETEVVSRNLCGIVDIGSNGIRFSISSKAAHHARIMPCVFKDRVGLSLYEVQYNTHTNAKCPIPRDIIKEVCSAMKRFKLICDDFGVPETSVRVIATEATRDAINADEFVNAVYGSTGWKVEILGQEDETRVGIYGVVSSFNTVRGLYLDVAGGSTQLSWVISSHGEVKQSSKPVSLPYGAGTLLRRMRTDDNRALFYEIKEAYKDAIEKIGIPQEMIDDAKKEGGFDLWTRGGGLRGMGHLLLYQSEGYPIQTIINGYACTYEEFSSMSDYLFLKQKIPGSSKEHKIFKVSDRRALQLPAVGLFMSAVFEAIPQIKAVHFSEGGVREGSLYSLLPKEIRAQDPLLIASRPYAPLLTEKYLYLLRTSIPQEDIPEIVNERIAPALCNLAFVHASYPKELQPTAALHVATRGIIAGCHGLSHRARALIGIALCSRWGGNIPESEEKYSQELEQVVLREGDKAEALRIVWWTKYIGTIMYVICGVHPGGNIRDNVFDFHVSKRSEVETSLKELIIDDANTTKVKEESTRKNRGYEVVVRISKDDLKTSASVRSRIITLQKKVRKLSRGSVERVKIGVQFYEE
B7: YIL095W (protein, UniProt P40494 1-810, looked up)
Actin-regulating kinase PRK1: MNTPQISLYEPGTILTVGSHHAKIIKYLTSGGFAQVYTAEISPPDPYSNANIACLKRVIVPHKQGLNTLRAEVDAMKLLRNNKHVVSYIDSHAARSVNGIAYEVFVLMEFCERGGLIDFMNTRLQNRLQESEILEIMSQTVQGITAMHALQPPLIHRDIKIENVLISHDGLYKVCDFGSVSGVIRPPRNTQEFNYVQHDILTNTTAQYRSPEMIDLYRGLPIDEKSDIWALGVFLYKICYYTTPFEKSGEAGILHARYQYPSFPQYSDRLKNLIRLMLMEAPSQRPNICQVLEEVSRLQNKPCPIRNFYLLRAMNQNANTQLAGEPSSTTYVPTQKFIPVQSLQSINQPPNMMPVTHVSTTPNLGTFPISINDNNKTEVTAHAGLQVGSHSNLTSPLMKTKSVPLSDEFASLYYKELHPFQKSQTFKSVESFQSPQRKSMPPLSLTPVNNDIFDRVSAINRPNNYVDSETQTIDNMAVPNLKLSPTITSKSLSSTKEIAAPDNINGSKIVRSLSSKLKKVITGESRGNSPIKSRQNTGDSIRSAFGKLRHGFTGNSVNNSRSASFDNNNVNGNGNNTNRRLVSSSTSSFPKFNSDTKRKEESDKNQRLEKRRSMPPSILSDFDQHERNNSRTGSRDYYRSHSPVKKTQASAKTTSKPTLIPDNGNVNINQEKKESIQRRVHNLLKSSDDPVTYKSASGYGKYTDIGTETSNRHSSVRITPITEEKFKKTLKDGVLDIKTKSNGKDKSRPPRPPPKPLHLRTEIQKIRNFSRLQSKKLPIERISSEATETIVDVNVDDLEADFRKRFPSKV

No dose or concentration is given here for some results.

In this series the test system is ABP1. In words: DHFR-PCA on solid medium, bait ABP1 (Fig. 1B). More on the design: key: 0: SH3-independent; 1: SH3-dependent PPIs; 2: SH3-inhibited PPIs. It is filed as cell-based, Saccharomyces cerevisiae. The conditions noted are these: bait ABP1, label = prey. An excerpt:
Supplement 41467_2021_21873_MOESM8_ESM.xlsx, sheet "Fig1B" | column: medsize; medrep; Ratio; Score
For B1, the Score was 0.

B2 had a Score of 0.

B3 returned a Score of 0.

As for B4, the Score is listed as 0.

The molecule B5 had a Score of 0.

With B6, the Score is on record as 0.

For the molecule B7, the Score is 0.
